Pooled drug test results. Numbers come from NIAID ChemDB, via PubChem.

Shared fields: tests in culture; species: Hepatitis B virus; read-out: EC50

Conditions beyond the fields shown may differ between rows.

SMILES	strain	cell line	read by	setting	result
CC1=C(O)C(=O)C=C2C1=CC=C1[C@@]2(C)CC[C@@]2(C)[C@@H]3C[C@](C)(C(=O)O)CC[C@]3(C)CC[C@]12C	-	HepG2 2.2.15	ELISA / antigen	-	12.7 µM
Nc1nccc2c1ncn2CCOCCP(=O)(O)O	-	HB611	-	-	200 µM
CC(C)(C)C(=O)SCCOP(=O)(OCCSC(=O)C(C)(C)C)OC[C@H]1CC[C@@H](n2cnc3c(N)ncnc32)O1	-	2.2.15	-	-	0.08 µM
COc1cc2ccc(=O)oc2cc1O	-	HepG2.2.15	ELISA / antigen	-	2910 µM
O=C(/C=C/c1ccc(O)c(O)c1)O[C@@H]1[C@H](O)C[C@@](O)(C(=O)O)C[C@H]1OC(=O)/C=C/c1ccc(O)c(O)c1	-	HepG2.2.15	ELISA / antigen	-	202.7 µM
COc1ccc(N2C(=NC(C)C)NC3=C(CCN(C(=O)c4ccc(Br)c(Cl)c4)C3)S2(=O)=O)c(Cl)c1	Genotype D	HepG2.117 cells	PCR	-	0.1–1 µM
Nc1ccn(CCOCCP(=O)(O)O)c(=O)n1	-	HB611	-	-	>400 µM
CC(C)=CC/C=C(/C)[C@H]1CC[C@]2(C)[C@@H]1[C@H](O)C[C@@H]1[C@@]3(C)CC[C@H](O)C(C)(C)[C@@H]3[C@@H](OC3OC(CO)C(O)C(O)C3O)C[C@]12C	-	HepG2.2.15	PCR	2 d	4.299 µM
C[C@@]1(C(=O)O)CC[C@]2(C)CC[C@]3(C)C4=CC(c5c[nH]c6ccc(F)cc56)c5cc(O)c(O)cc5[C@]4(C)CC[C@@]3(C)[C@@H]2C1	-	HepG2 2.2.15	ELISA / antigen	-	>100 µM
Nc1nc(=O)n(CCOCP(=O)(O)O)cc1-c1ccccc1	-	HB611	-	-	200 µM
Cc1c(O)c(O)cc2c1CC=C1[C@@]2(C)CC[C@@]2(C)[C@@H]3C[C@](C)(C(=O)O)CC[C@]3(C)CC[C@]12C	-	HepG2 2.2.15	ELISA / antigen	-	>100 µM
Nc1ncnc2c1ncn2C[C@@H](CF)OCP(=O)(O)O	-	HepG2 2.2.15	hybridisation	-	1.2 µM
Nc1nc(=O)n([C@@H]2C[C@@H](O)[C@H](CO)O2)cc1Cl	-	2.2.15	-	-	10 µM
Nc1ccn(CC#CCO)c(=O)n1	-	2.2.15	-	-	>100 µM
COC(=O)C1(O)C[C@H](O)C(OC(=O)/C=C/c2ccc(O)c(O)c2)[C@@H](O)C1	-	HepG2.2.15	PCR	-	175.3 µM
Nc1nc(=O)n(CC(CO)OCP(=O)(O)O)cc1-c1ccccc1	-	HB611	-	-	200 µM
CC(C)CC1=NC2=C(CCN(C(=O)c3ccc(Br)c(Cl)c3)C2)S(=O)(=O)N1Cc1ccccc1	Genotype D	HepG2.117	PCR	-	>1 µM
CC(C)(C)[N+](O)(CCc1c[nH]c2ccccc12)C(C)(C)C	-	HepG2.2.15	PCR / fluorescence	-	>100 µM
Cc1cn([C@@H]2C[C@@H](O)[C@H](CO)O2)c(=O)[nH]c1=O	-	2.2.15	-	-	0.19 µM
Nc1ncnc2c1ncn2CCOCP(=O)(O)O	DUAL	-	-	-	0.64 µM
Nc1ccn([C@@H]2CS[C@H](CO)O2)c(=O)n1	WILD TYPE	HepG2	-	-	0.01 µM
Nc1nc(=O)n(C=C=CCO)cc1F	-	2.2.15	-	-	62 µM
Nc1ccn([C@@H]2CS[C@H](CO)O2)c(=O)n1	Mutation M552V	Huh7	-	-	33 µM
O[N+](CCc1c[nH]c2ccccc12)(Cc1ccccc1)Cc1ccccc1	-	HepG2.2.15	PCR / fluorescence	-	>100 µM
C=C1[C@@H](CO)[C@H](O)C[C@H]1n1cnc2c(N)[nH]c(=O)nc21	-	HepG2.2.15	-	-	100 µM
CCOC(=O)c1ccc(O)cc1	-	HepG2.2.15	PCR	-	59.52 µM
O=C(C=Cc1ccc(O)c(O)c1)O[C@@H]1C[C@](O)(C(=O)O)C[C@@H](O)[C@H]1O	-	HepG2.2.15	PCR	-	5.5 µM
C[C@@H]1O[C@@H](O[C@H]2[C@H](O)[C@@H](O)[C@H](O[C@H]3CC[C@]4(C)[C@H]5C=C[C@]67OC[C@@]8(CCC(C)(C)C[C@H]86)[C@@H](O)C[C@@]7(C)[C@]5(C)CC[C@H]4C3(C)C)O[C@@H]2CO[C@@H]2O[C@H](CO)[C@@H](O)[C@H](O)[C@H]2O)[C@H](O)[C@H](O)[C@H]1O	-	HepG2.2.15	-	-	13.4 µg/mL
C=C1CC[C@@H](O)[C@]2(C)CC[C@@H](C(C)C)[C@H](O)[C@@H]12	-	HepG2.2.15	ELISA / antigen	-	108 µM
C#C[C@@]1(CO)O[C@H](n2cnc3c(=O)[nH]c(N)nc32)C[C@H]1O	-	2.2.15	-	-	>35 µM
COc1ccc(CN=C2NC3=C(CCN(C(=O)c4ccc(Br)c(Cl)c4)C3)S(=O)(=O)N2c2ccccc2)cc1	Genotype D	HepG2.117	PCR	-	>1 µM
Nc1ncnc2c1ncn2C[C@@H](CO)OCP(=O)(O)O	-	HepG2 2.2.15	hybridisation	-	1.5 µM
O=C(/C=C/c1ccc(O)c(O)c1)OC1[C@@H](O)CC(O)(C(=O)O)C[C@@H]1O	-	HepG2.2.15	ELISA / antigen	-	>1580 µM
CCOC(=O)/C=C/c1ccc(O)c(O)c1	-	HepG2.2.15	ELISA / antigen	-	<52.79 µM
Cc1cn([C@@H]2CC[C@H](CO)O2)c(=O)[nH]c1=O	-	2.2.15	-	-	>10 µM
COc1cc2c(c(C)c1OC)CC=C1[C@@]2(C)CC[C@@]2(C)[C@@H]3C[C@](C)(CO)CC[C@]3(C)CC[C@]12C	-	HepG2 2.2.15	ELISA / antigen	-	68.4 µM
COC(=O)[C@]1(O)C[C@@H](O)[C@@H](O)[C@H](OC(=O)/C=C/c2ccc(O)c(O)c2)C1	-	HepG2.2.15	ELISA / antigen	-	>1680 µM
C[N+](C)(O)CCc1c[nH]c2ccc(O)cc12	-	HepG2.2.15	PCR / fluorescence	-	<1 µM
[N-]=[N+]=N[C@@H]1C[C@@H](n2cc(F)c(N)nc2=O)O[C@H]1CO	-	2.2.15	-	-	0.11 µM
Nc1nc(N)c2ncn([C@H]3CO[C@@H](CO)O3)c2n1	M550I	-	-	-	65 µM
Nc1ncnc2c1ncn2CC(COCP(=O)(O)O)OCP(=O)(O)O	-	HB611	-	-	100 µM
Cc1cn(C2C=CC(C(=O)O)O2)c(=O)[nH]c1=O	-	HepG2	replicon	-	10 µg/mL
COC(=O)[C@]1(C)CC[C@]2(C)CC[C@]3(C)C4=CCc5c(cc(OC)c(OC)c5C)[C@]4(C)CC[C@@]3(C)[C@@H]2C1	-	HepG2 2.2.15	ELISA / antigen	-	>100 µM
Cc1cn([C@@H]2C[C@H](O)[C@H](CO)O2)c(=O)[nH]c1=O	-	2.2.15	-	-	>10 µM

A second listing of 4 rows from above:

SMILES,strain,cell line,read by,setting,result
O=C(/C=C/c1ccc(O)c(O)c1)OC1[C@@H](O)CC(O)(C(=O)O)C[C@@H]1O,-,HepG2.2.15,ELISA / antigen,-,>1580 µM
Nc1ccn(CC#CCO)c(=O)n1,-,2.2.15,-,-,>100 µM
C[C@@]1(C(=O)O)CC[C@]2(C)CC[C@]3(C)C4=CC(c5c[nH]c6ccc(F)cc56)c5cc(O)c(O)cc5[C@]4(C)CC[C@@]3(C)[C@@H]2C1,-,HepG2 2.2.15,ELISA / antigen,-,>100 µM
COc1ccc(N2C(=NC(C)C)NC3=C(CCN(C(=O)c4ccc(Br)c(Cl)c4)C3)S2(=O)=O)c(Cl)c1,Genotype D,HepG2.117 cells,PCR,-,0.1–1 µM

a–b is a range or a potency band. ECn: concentration that inhibits the pathogen or its effect by n%. Blank or dashed fields: not listed here.